Compound potency records, mixed from different reports. Data source: NIAID ChemDB in PubChem.

Shared fields: host cell toxicity; cells: CEM; read-out: CC50

An empty or dashed field is not shown. CCn: concentration that lowers growth or viability of the cells by n%. Lines come from different laboratories, so protocols vary.

SMILES | method | value
COc1ccc2[nH]c(=O)c(CN(Cc3cccnc3)S(=O)(=O)c3cccc4nsnc34)cc2c1 | MTT | >1 µM
COC(=O)[C@H](C)NP(=O)(OC[C@@H]1C=C[C@H](n2cc(C)c(=O)[nH]c2=O)O1)Oc1ccccc1 | - | 100 µM
COc1ccc(C(=O)/C=C/c2cc3ccc(Cl)c(C)c3nc2Cl)c(Br)c1 | MTT | 43.09 µM
CC(=O)ONc1ccc(S(=O)(=O)N(CC(C)C)C[C@@H](O)[C@H](Cc2ccccc2)NC(=O)CN2C(=O)c3ccccc3C2=O)cc1 | MTT | >100 µM
CC(C)=CCOc1cc(NC(=O)c2ccsc2C)ccc1Cl | - | 6 µg/mL
Cc1cn([C@H]2C=C[C@@H](CO)O2)c(=O)[nH]c1=O | - | 174 µM
O=C(N[C@@H](Cc1ccc(O)cc1)C(=O)O)c1ccccc1SSc1ccccc1C(=O)N[C@@H](Cc1ccc(O)cc1)C(=O)O | - | >165 µM
Cc1cn([C@@H]2O[C@H](CO[Si](C)(C)C(C)(C)C)[C@@H](O)[C@H]2O[Si](C)(C)C(C)(C)C)c(=O)n(CCC(=O)O)c1=O | - | 25 µM
OC[C@H]1O[C@@H](c2cc(Cl)c(F)cc2F)C[C@@H]1O | - | >250 µM
O=C(O)CNC(=O)c1ccccc1SSc1ccccc1C(=O)NCC(=O)O | - | >100 µM
Cc1c(Cl)ccc2cc(/C=C/c3sccc3Br)c(Cl)nc12 | MTT | 87.09 µM
CN1CCCC12C1CC3CC(C1)CC2C3 | - | >200 µg/mL
CC1=C(/C=C/C(C)=C\C=C\C(C)=C\C(=O)O)C(C)(C)CCC1 | MTT | >1 µM
C[C@H](Cc1ccc(OC(=O)CN(C)C)c(OC(=O)CN(C)C)c1)[C@@H](C)Cc1ccc(OC(=O)CN(C)C)c(OC(=O)CN(C)C)c1 | - | >100 µM
CCC(CC)OC(=O)c1cc(NC(=S)c2ccoc2C)ccc1Cl | - | 16 µg/mL
COc1cc(Cc2cnc(/N=C3\C(=O)N(CN4CCN(c5cccc(C(F)(F)F)c5)CC4)c4ccc(F)cc43)nc2N)cc(OC)c1OC | XTT | 127 µg/mL
O=C(Nc1ccc(Br)cc1)c1ccccc1SSc1ccccc1C(=O)Nc1ccc(Br)cc1 | - | 40 µM
COc1cc(Cc2cnc(/N=C3\C(=O)N(CN4CCN(Cc5ccccc5)CC4)c4ccc(F)cc43)nc2N)cc(OC)c1OC | XTT | 112 µg/mL
CC[C@@H](C)[C@@H](CC(=O)O)NC(=O)c1ccccc1SSc1ccccc1C(=O)N[C@H](CC(=O)O)[C@H](C)CC | - | >100 µM
Cc1occc1C(=S)Nc1ccc(Cl)c(C(=O)OCC2CC2)c1 | - | 6.7 µg/mL
CC(C)=CCC[C@]1(C)C=Cc2c(ccc3c2C(=O)C(=O)C(C2=C(Cl)C(=O)c4ccccc4C2=O)=C3O)O1 | MTT | 2.7 µM
CC(=O)ONc1ccc(S(=O)(=O)N(Cc2ccccc2)C[C@@H](O)[C@H](Cc2ccccc2)NC(=O)CCc2c[nH]c3ccccc23)cc1 | MTT | >100 µM
COC(=O)[C@H](C)NP(=O)(OC[C@H]1C/C1=C/n1cnc2c(OC)nc(N)nc21)Oc1ccccc1 | - | 4.6 µM
COC(=O)[C@H](C)NP(=O)(OC[C@@H]1C=C[C@H](n2cnc3c(NC4CC4)nc(N)nc32)C1)Oc1ccccc1 | - | 13 µM
C/C=C/CSc1cc(NC(=O)c2ccsc2C)ccc1Cl | - | 4.8 µg/mL
Nc1nc(NC2CC2)c2ncn(C=C3CC3CO)c2n1 | - | >184 µM
CCC[C@@H](CCC(=O)O)NC(=O)c1ccccc1SSc1ccccc1C(=O)N[C@@H](CCC)CCC(=O)O | - | 50 µM
NC(=O)CCNC(=O)c1ccccc1SCc1ccc([N+](=O)[O-])o1 | XTT | 8.24 µM
CNOC(=O)Cn1c(=O)c(C)cn([C@@H]2O[C@H](CO[Si](C)(C)C(C)(C)C)[C@@H](O)[C@H]2O[Si](C)(C)C(C)(C)C)c1=O | - | 19 µM
COc1cc(Cc2cnc(/N=C3\C(=O)N(CN4CCCC4)c4ccc(C)cc43)nc2N)cc(OC)c1OC | - | 122 µM
CCCCCCCCCCCCCCCC(=O)Nc1ccn([C@H]2CC[C@@H](COP(=O)(O)OCC(COP(=O)(O)OC[C@H]3O[C@@H](n4cc(C)c(=O)[nH]c4=O)C[C@@H]3N=[N+]=[N-])OC(=O)CCCCCCCCCCCCCCC)O2)c(=O)n1 | XTT | >1 µM
CC(C)O/N=C/c1cc(NC(=S)c2ccccc2)ccc1Cl | - | 9 µg/mL
Cc1ccc(N2C(=O)CCC2(C#N)c2ccc(OCc3ccc(Cl)cc3Cl)cc2)cc1 | absorbance | 6.6 µM
CC(=O)ONc1ccc(S(=O)(=O)N(CC(C)C)C[C@@H](O)[C@H](Cc2ccccc2)NC(=O)CCCc2c[nH]c3ccccc23)cc1 | MTT | 86.2 µM
Cc1cn([C@H]2C[C@H](O)[C@@H](COC(=O)CCCCCCCCCCBr)O2)c(=O)[nH]c1=O | - | 54 µM
COC(=O)[C@H](C)NP(=O)(OCC1C/C1=C/n1cnc2c(=O)[nH]c(N)nc21)Oc1ccccc1 | - | >103 µM
COc1cc(Cc2cnc(/N=C3\C(=O)N(CN4CCCCC4)c4ccc(C)cc43)nc2N)cc(OC)c1OC | - | 105 µM
N#CC(NCc1ccc(C=O)cc1)c1ccccc1 | absorbance | 20.1 µM
COC(=O)CCCCn1c(=O)c(C)cn([C@@H]2O[C@H](CO[Si](C)(C)C(C)(C)C)[C@@H](O)[C@H]2O[Si](C)(C)C(C)(C)C)c1=O | - | 22 µM
CCn1cc(C(=O)O)c(=O)c2cc(F)c(N3CCN(CN4C(=O)/C(=N\c5ncc(Cc6cc(OC)c(OC)c(OC)c6)c(N)n5)c5cc(F)ccc54)CC3)cc21 | XTT | 139 µg/mL
COC(=O)c1ccccc1SSc1ccccc1C(=O)OC | - | 9.3 µM
COC(=O)C(C)(C)NP(=O)(OC[C@@H]1C=C[C@H](n2cc(C)c(=O)[nH]c2=O)O1)Oc1ccccc1 | - | 225 µM
Nc1ncnc2c1ncn2[C@@H]1O[C@@H](CO)[C@H](O)[C@H]1O | - | >1000 µM
CC(C)(C)[Si](C)(C)OC[C@H]1O[C@@H](n2cnc3c(=O)n(CC(=O)O)cnc32)[C@H](O)[C@@H]1O[Si](C)(C)C(C)(C)C | - | 173 µM
CC(C)CN(C[C@@H](O)[C@H](Cc1ccccc1)NC(=O)CCc1c[nH]c2ccccc12)S(=O)(=O)c1ccc(Br)cc1 | MTT | 52.4 µM
Cc1occc1C(=S)Nc1ccc(Cl)c(C(=O)OC(C)C)c1 | - | 5.2 µg/mL
CC(=O)ONc1ccc(S(=O)(=O)N(CC(C)C)C[C@@H](O)[C@H](Cc2ccccc2)NC(=O)CN2C(=O)c3ccccc3S2(=O)=O)cc1 | MTT | >100 µM
Cc1cc(C)cc(N2C(=O)CCC2(C#N)c2c(Cl)cccc2Cl)c1 | absorbance | 20.3 µM
Cc1ccsc1C(=S)Nc1ccc(Cl)c(C(=O)OC(C)C)c1 | - | 5.2 µg/mL
CC(C)(C)[Si](C)(C)OC[C@@H]1CC[C@H](n2cnc3c(=O)n(CC(=O)O)cnc32)O1 | - | >200 µM
COc1cc(Cc2cnc(/N=C3\C(=O)N(CN4CCN(C)CC4)c4ccc(F)cc43)nc2N)cc(OC)c1OC | XTT | 115 µg/mL
Cc1ccc(NC(C#N)c2ccccc2OCc2ccccc2)cc1 | absorbance | 3.8 µM
O=C(O)CC[C@@H](NC(=O)c1ccccc1SSc1ccccc1C(=O)N[C@H](CCC(=O)O)C1CCCCC1)C1CCCCC1 | - | 24 µM
Cc1occc1C(=S)Nc1ccc(Cl)c(OCC(=O)OC(C)(C)C)c1 | - | 4.3 µg/mL
O=C(c1ccccc1SSc1ccccc1C(=O)N1CCCCC1)N1CCCCC1 | - | 27 µM
CO/N=C/c1cc(NC(=S)c2ccoc2C)ccc1Cl | - | 24 µg/mL
Cc1ccc(N2C(=O)CCC2(C#N)c2ccc(OCc3c(Cl)cccc3Cl)cc2)cc1 | absorbance | 16.6 µM
CC(=O)ONc1ccc(S(=O)(=O)N(CC(C)C)C[C@@H](O)[C@H](Cc2ccccc2)NC(=O)c2ccc(-c3ccc(Cl)cc3)o2)cc1 | MTT | 30 µM
CN(C)C1CC12C1CC3CC(C1)CC2C3 | - | >200 µg/mL
COc1cc(Cc2cnc(/N=C3\C(=O)N(CN4CCN(c5ccccn5)CC4)c4ccc(C)cc43)nc2N)cc(OC)c1OC | - | 121 µM
CCCCCCCCCCCCCCCC(=O)OCC(NC(C)=O)C(OCC)OCC | trypan blue | >100 µM
CO[C@@H]1[C@H](O)[C@@H](CO)O[C@H]1c1ccccc1 | - | >200 µg/mL
Cc1cn([C@H]2C[C@H](O)[C@@H](COC(=O)CCCCCCCCCCN=[N+]=[N-])O2)c(=O)[nH]c1=O | - | 32 µM
Cc1ccoc1C(=S)Nc1ccc(Cl)c(C(=O)OC(C)C)c1 | - | 15 µg/mL
COc1cccc(N2CCN(CN3C(=O)/C(=N\c4ncc(Cc5cc(OC)c(OC)c(OC)c5)c(N)n4)c4cc(C)ccc43)CC2)c1 | - | 11.9 µM
CC(C)C(OC(=O)c1cc(NC(=S)c2cccn2C)ccc1Cl)C(C)C | - | >100 µg/mL
CN[C@H](CC(C)C)C(=O)N[C@H]1C(=O)N[C@@H](CC(N)=O)C(=O)N[C@H]2C(=O)N[C@H]3C(=O)N[C@H](C(=O)N[C@H](C(=O)O)c4cc(O)cc(O)c4-c4cc3ccc4O)[C@H](O)c3ccc(c(Cl)c3)Oc3cc2cc(c3O[C@@H]2O[C@H](CO)[C@@H](O)[C@H](O)[C@H]2O[C@H]2C[C@](C)(N)[C@H](O)[C@H](C)O2)Oc2ccc(cc2Cl)[C@H]1O | - | >100 µM
Nc1ncnc2c1ncn2[C@H]1C[C@@H](O)[C@H](CO)O1 | - | >1000 µM
C/C=C/CSc1cc(NC(=S)c2ccoc2C)ccc1Cl | - | 4.7 µg/mL
Nc1nc2c(ncn2[C@H]2S[C@@H](CO)C=C2F)c(=O)[nH]1 | - | >10.4 µM
C1CN(CC2CC2)C2(C1)C1CC3CC(C1)CC2C3 | - | >200 µg/mL
CCCCCCCCCCCCCC(=O)OC[C@H]1O[C@@H](n2cc(C)c(=O)[nH]c2=O)C[C@@H]1O | - | 12 µM
N[C@H]1CONC1=O | - | >20 µg/mL
Nc1nc2c(ncn2[C@H]2C=C[C@@H](CO)C2)c(=O)[nH]1 | - | 157 µM
Cc1sccc1C(=S)Nc1ccc(Cl)c(OCC2CCCC2)c1 | - | 4.3 µg/mL
CC(C)CN(C[C@@H](O)[C@H](Cc1ccccc1)NC(=O)[C@H](C)N1C(=O)c2ccccc2C1=O)S(=O)(=O)c1ccc(Br)cc1 | MTT | >100 µM
Cc1occc1C(=S)Nc1ccc(Cl)c(C(=O)OC(C(C)C)C(C)C)c1 | - | 3.7 µg/mL
Cc1c(Cl)ccc2cc(/C=C/C(=O)c3ccccc3Br)c(Cl)nc12 | MTT | 30.4 µM
C[C@H](CCC(=O)O)[C@H]1CC[C@H]2[C@@H]3[C@H](O)C[C@@H]4C[C@H](O)CC[C@]4(C)[C@H]3C[C@H](O)[C@]12C | - | 0.01 µM
Cc1occc1C(=S)Nc1ccc(Cl)c(C(=O)OC2CCCC2)c1 | - | 4.3 µg/mL
CCCCCCCCCCCCC(N=[N+]=[N-])C(=O)OC[C@H]1O[C@@H](n2cc(C)c(=O)[nH]c2=O)C[C@@H]1O | - | >20 µM
O=C(NNc1ccccc1)c1ccccc1SSc1ccccc1C(=O)NNc1ccccc1 | - | 5.2 µM
Cc1cn([C@@H]2O[C@@H](CO)[C@H](O)[C@H]2O)c(=O)[nH]c1=O | - | >1000 µM
CCN1CCCC12C1CC3CC(C1)CC2C3 | - | >200 µg/mL
Cc1sccc1C(=S)Nc1ccc(Cl)c(SCC(=O)OC(C)(C)C)c1 | - | 5.4 µg/mL
CC[Si]1(C(C)C)O[C@H]2[C@@H](O)[C@H](c3ccccc3)O[C@@H]2CO[Si](C(C)C)(C(C)C)O1 | - | 15 µg/mL
COC(=O)Cn1c(=O)c(C)cn([C@@H]2O[C@H](CO[Si](C)(C)C(C)(C)C)[C@@H](O)[C@H]2O[Si](C)(C)C(C)(C)C)c1=O | - | 14 µM
CCOc1ccc(C2(C#N)CC(=O)N2Cc2ccccc2)cc1 | absorbance | 29.4 µM
Cc1ccc(/C=C/c2cc3ccc(Cl)c(C)c3nc2Cl)s1 | MTT | 63.03 µM
Cc1cc(C)cc(N2C(=O)CCC2(CN)c2c(Cl)cccc2Cl)c1 | absorbance | ≥100 µM
CCC(CC)COC(=O)c1cc(NC(=S)c2ccoc2C)ccc1Cl | - | 7 µg/mL
CCCCCCCCCCCCCC(=O)NC(CO)C(=O)O | trypan blue | >80 µM

Repeating the final 6 entries:

SMILES	method	value
COC(=O)Cn1c(=O)c(C)cn([C@@H]2O[C@H](CO[Si](C)(C)C(C)(C)C)[C@@H](O)[C@H]2O[Si](C)(C)C(C)(C)C)c1=O	-	14 µM
CCOc1ccc(C2(C#N)CC(=O)N2Cc2ccccc2)cc1	absorbance	29.4 µM
Cc1ccc(/C=C/c2cc3ccc(Cl)c(C)c3nc2Cl)s1	MTT	63.03 µM
Cc1cc(C)cc(N2C(=O)CCC2(CN)c2c(Cl)cccc2Cl)c1	absorbance	≥100 µM
CCC(CC)COC(=O)c1cc(NC(=S)c2ccoc2C)ccc1Cl	-	7 µg/mL
CCCCCCCCCCCCCC(=O)NC(CO)C(=O)O	trypan blue	>80 µM